Measured values from several laboratories, pooled; numbers as filed in NIAID ChemDB.

All rows: whole-cell or culture tests; organism: Hepatitis B virus

Two numbers with a dash give a range or band. Neighbouring rows are from separate reports. ECn is the concentration giving n% inhibition of infection, replication or growth. Blank or dashed fields: not listed here.

SMILES | endpoint | conditions | cell line | read by | result
Cn1nc2cc(NS(=O)(=O)c3cnn(-c4cccc(F)n4)c3)ccc2c1C(=O)Nc1ccc(F)c(Cl)c1 | EC50 |  | HepAD38 | PCR | <100 µM
CC(=O)N[C@H]1C(O[C@@H]2[C@@H](O)[C@H](O)[C@@H](O)C[C@H]2OC(=O)[C@H]2C[C@H](O)[C@@]3(O)[C@@H](C2)O[C@@]2(C[C@H](OC(=O)c4ccc(O)cc4)[C@H](C)CO2)[C@@H]3O)O[C@H](CO)[C@@H](O)[C@@H]1O | EC50 |  | HepG2 2.2.15 | ELISA / antigen | 12.5 µM
CCCCCCCC(=O)Nc1nc(N)nc2c1ncn2[C@H]1CO[C@@H](COP(=O)(N[C@@H](C)C(=O)OCC)Oc2ccccc2)O1 | EC50 |  | HepAD38 | PCR | 0.55 µM
COc1ccc(CN2CCn3c(c4n(c3=O)CCN(C(=O)Nc3ccc(F)c(Cl)c3)C4)C2=O)cc1 | EC50 |  | HepG2.2.15 | PCR | >5 µM
COC(=O)[C@H](Cc1ccccc1)NP(=O)(OC[C@@H]1C=C[C@H](n2ccc3c(N)ncnc32)C1)Oc1ccccc1 | EC50 |  | HepG2 2.2.15 | hybridisation | 20 µM
CCOC(=O)[C@H](C)NP(=O)(OC[C@@H]1OC[C@H](n2cnc3c(NC(C)=O)nc(N)nc32)O1)Oc1ccccc1 | EC90 |  | HepAD38 | PCR | >10 µM
Cn1nc2cc(NS(=O)(=O)c3ccccc3)ccc2c1C(=O)Nc1ccc(F)c(Cl)c1 | EC50 |  | HepAD38 | PCR | <100 µM
CCCCCC(=O)Nc1nc(N)nc2c1ncn2[C@H]1CO[C@@H](COP(=O)(N[C@@H](C)C(=O)OCC)Oc2ccccc2)O1 | EC90 |  | HepAD38 | PCR | >10 µM
CCOC(=O)C1=C(CN2CC(F)(F)[C@H]3[C@@H]2CCN3CC[C@](C)(O)C(=O)O)NC(c2nccs2)=N[C@H]1c1ccc(F)c(F)c1Cl | EC50 |  | HepG2.2.15 | PCR | 0.007 µM
O=C(CSc1nnc(CNc2ccc(F)cc2)n1-c1ccccc1)NN=CC(O)C(O)C(O)CO | EC50 |  | HepG2 2.2.15 | ELISA | 16.7 µM
Cn1nc2cc(C(=O)NC[C@H](O)CO)ccc2c1C(=O)Nc1ccc(F)c(Cl)c1 | EC50 |  | HepAD38 | PCR | >1000 µM
COc1ccc(-n2c(C(=O)NCc3ccncc3)c3n(c2=O)CCN(C(=O)c2ccc(Cl)c(Cl)c2)C3)cc1 | EC50 |  | HepG2.117 | PCR | >0.5 µM
Nc1ncnc2c1ccn2[C@H]1C=C[C@@H](CO)C1 | EC50 |  | HepG2 2.2.15 | hybridisation | >200 µM
COc1ccc(C(=O)N(C)CC(=O)Nc2ccc(Cl)cc2Cl)cc1 | EC90 |  | HepG2.2.15 | PCR | 17 µM
Nc1nc2c(ncn2CCC(CO)COP(=O)(O)OP(=O)(O)OP(=O)(O)O)c(=O)[nH]1 | EC50 |  | 2.2.15 |  | 0.6 µM
CCNC(=O)C(=O)N[C@@H]1CCN(S(=O)(=O)c2cn(C)c(C(=O)Nc3cc(F)c(F)c(F)c3)c2F)C1 | EC50 |  | HepAD38 cells | PCR | 0.3–1 µM
C[C@H](NC(=O)c1c2n(c(=O)n1-c1ccc(OCC(F)(F)F)cc1)CCN(C(=O)c1ccc(Br)c(Cl)c1)C2)c1ccc(OCC#N)cc1F | EC50 |  | HepG2.117 | PCR | 0.1–0.5 µM
O=c1[nH]cnc2c1ncn2C[C@H]1C[C@H]1[C@H](O)CO | EC50 |  | 2.2.15 |  | >10 µM
CCOC(=O)C1=C(CN2CC(F)(F)[C@@H]3[C@H]2CON3C[C@](C)(O)C(C)(C)C(=O)O)NC(c2nccs2)=N[C@H]1c1cccc(F)c1C | EC50 |  | HepG2.2.15 | PCR | 0.029 µM
Cn1nc2cc(NS(=O)(=O)c3cnn(CC4CC4)c3)ccc2c1C(=O)Nc1ccc(F)c(Cl)c1 | EC50 |  | HepAD38 | PCR / entry | <100 µM
CCOC(=O)C1=C(CN2CC(F)(F)[C@@H]3[C@H]2CON3CC(F)(F)C(C)(C)C(=O)O)NC(c2nccs2)=N[C@H]1c1cccc(F)c1C | EC50 |  | HepG2.2.15 | PCR | 0.01 µM
CCCCCCCCCCCCCC(=O)Nc1nc(N)nc2c1ncn2[C@H]1CO[C@@H](COP(=O)(N[C@@H](C)C(=O)OCC)Oc2ccccc2)O1 | EC90 |  | HepAD38 | PCR | 8.8 µM
CNC(=O)C(=O)N1C[C@@H]2C(NS(=O)(=O)c3cn(C)c(C(=O)Nc4cc(F)c(F)c(F)c4)c3F)[C@@H]2C1 | EC50 |  | HepAD38 cells | PCR | <0.1 µM
C[C@H](NC(=O)c1c2n(c(=O)n1-c1ccc(OC3CC3)cc1)CCN(C(=O)c1ccc(Br)c(Cl)c1)C2)c1ccccc1-n1cncn1 | EC50 |  | HepG2.2.15 | PCR | >5 µM
C[C@@H]1CO[C@@]2(C[C@@H]1OC(=O)c1ccc(O)cc1)O[C@]1(O)C[C@@H](C(=O)O[C@@H]3C[C@H](O)[C@@H](O)[C@H](O)[C@H]3OC3O[C@H](CO)[C@@H](O)[C@H](O)[C@H]3O)C[C@H](O)[C@]1(O)[C@H]2O | EC50 |  | HepG2 2.2.15 | ELISA / antigen | 22.2 µM
CCNC(=O)C(=O)N1CC(C)C(NS(=O)(=O)c2cn(C)c(C(=O)Nc3cc(F)c(F)c(F)c3)c2F)C1 | EC50 |  | HepAD38 cells | PCR | <0.1 µM
Cc1ncc(S(=O)(=O)Nc2ccc3c(C(=O)Nc4ccc(F)c(Cl)c4)n(C)nc3c2)n1C | EC50 |  | HepAD38 | PCR | 100–1000 µM
CNC(=O)c1ccc(-n2c(=O)c3c(n4ncc(Cc5ccccc5)c24)CN(C(=O)c2ccc(Br)c(Cl)c2)CC3)cc1Cl | EC50 | 3 d | HepG2.117 | PCR | <0.1 µM
CCOC(=O)CSc1nnc(CNc2ccccc2)n1-c1ccccc1 | EC50 |  | HepG2 2.2.15 | ELISA | 31.6 µM
COC(=O)C1=C(CN2CC(F)(F)[C@@H]3[C@H]2CON3C[C@@H](F)C(C)(C)C(=O)O)NC(c2nccs2)=N[C@H]1c1cccc(F)c1C | EC50 |  | HepG2.2.15 | PCR | 0.024 µM
CN(CC(=O)Nc1ccc(Cl)cc1Cl)C(=O)c1cccnc1 | EC50 |  | HepG2.2.15 | PCR | 41 µM
Cn1nc2cc(NS(=O)(=O)c3cnn(-c4ncccn4)c3)ccc2c1C(=O)Nc1ccc(F)c(Cl)c1 | EC50 |  | HepAD38 | PCR | <100 µM
S=c1nc(CNc2ccccc2)[nH][nH]1 | EC50 |  | HepG2 2.2.15 | ELISA | 8 µM
COc1ccc(-n2c(=O)c3c(n4ncc(NC(=O)c5ccccc5)c24)CN(C(=O)c2ccc(Br)c(Cl)c2)CC3)cc1 | EC50 | 3 d | HepG2.117 | PCR | 0.1–0.5 µM
Cc1ccc(NCc2nnc(SCC(=O)NN=CC(O)C(O)C(O)C(O)CO)n2-c2ccccc2)cc1 | EC50 |  | HepG2 2.2.15 | ELISA | 7.7 µM
Nc1nc2c(ncn2C[C@H]2C[C@H]2[C@H](O)CO)c(=O)[nH]1 | EC50 |  | 2.2.15 |  | >10 µM
Cc1cn([C@H]2C[C@@](C)(CO)CO2)c(=O)[nH]c1=O | EC50 |  |  |  | >100 µM
CC(=O)Nc1nc(N)nc2c1ncn2[C@H]1CO[C@@H](CO)O1 | EC90 |  | HepAD38 | PCR | >10 µM
Cn1nc2cc(NS(=O)(=O)[C@]34CC[C@H](CC3=O)C4(C)C)ccc2c1C(=O)Nc1ccc(F)c(Cl)c1 | EC50 |  | HepAD38 | PCR | 100–1000 µM
COC(=O)[C@H](C)NP(=O)(OC[C@@H]1C=C[C@H](n2ccc3c(N)ncnc32)C1)Oc1ccccc1 | EC50 |  | HepG2 2.2.15 | hybridisation | 54 µM
CCOC(=O)C1=C(CN2CC(F)(F)[C@@H]3[C@H]2CON3C[C@@H](O)C(CC)(CC)C(=O)O)NC(c2nccs2)=N[C@H]1c1cccc(F)c1C | EC50 |  | HepG2.2.15 | PCR | 0.013 µM
Cn1nc2cc(NS(=O)(=O)C3CC3)c(F)cc2c1C(=O)Nc1ccc(F)c(Cl)c1 | EC50 |  | HepAD38 | PCR | >1000 µM
O=C(CNC(=O)c1ccc(F)cc1)Nc1ccc(Cl)nc1Cl | EC90 |  | HepG2.2.15 | PCR | 3.1 µM
Nc1ccn(C[C@H]2C[C@H]2CO)c(=O)n1 | EC50 |  | 2.2.15 |  | >10 µM
CNC(=O)c1ccc(-n2c(=O)c3c(n4ncc(Cc5ccc(F)cc5)c24)CN(C(=O)c2ccc(Br)c(Cl)c2)CC3)cc1 | EC50 | 3 d | HepG2.117 | PCR | <0.1 µM
CCCCCCCCCC(=O)Nc1nc(N)nc2c1ncn2[C@H]1CO[C@@H](COP(=O)(N[C@@H](C)C(=O)OCC)Oc2ccccc2)O1 | EC50 |  | HepAD38 | PCR | 0.43 µM
C[C@]1(CO)CO[C@@H](n2cc(F)c(N)nc2=O)C1 | EC50 |  |  |  | >100 µM
O=C(NCc1ccccc1)c1c2n(c(=O)n1-c1ccc(-n3cccn3)cc1)CCN(C(=O)c1ccc(Br)c(Cl)c1)C2 | EC50 |  | HepG2.117 | PCR | 0.1–0.5 µM
CCCCCCCCCCCC(=O)Nc1nc(N)nc2c1ncn2[C@H]1CO[C@@H](CO)O1 | EC90 |  | HepAD38 | PCR | >10 µM
Nc1ncnc2c1ncn2C[C@H]1C[C@H]1[C@H](O)CO | EC50 |  | 2.2.15 |  | >10 µM
CC(C)CNc1cnn2c3c(c(=O)n(-c4ccccc4)c12)CCN(C(=O)c1ccc(Cl)c(Cl)c1)C3 | EC50 | 3 d | HepG2.117 | PCR | >5 µM
COc1ccc(-n2c(C(=O)NCc3ccccc3-n3cccn3)c3n(c2=O)CCN(C(=O)c2ccc(Br)c(Cl)c2)C3)cc1 | EC50 |  | HepG2.117 | PCR | <0.1 µM
C[C@]1(CO)CO[C@@H](n2cnc3c(=O)[nH]c(F)nc32)C1 | EC50 |  |  |  | >100 µM
C[C@@H]1CO[C@@]2(C[C@@H]1OC(=O)c1ccccc1)O[C@@H]1C[C@@H](C(=O)O[C@@H]3C[C@H](O)[C@@H](O)[C@H](O)[C@H]3OC3O[C@H](CO)[C@@H](O)[C@H](O)[C@H]3O)C[C@H](O)[C@]1(O)[C@H]2O | EC50 |  | HepG2 2.2.15 | ELISA / antigen | 0.8 µM
C[C@]1(CO)CO[C@@H](n2ccc(=O)[nH]c2=O)C1 | EC50 |  |  |  | >100 µM
CCOC(=O)[C@H](C)NP(=O)(OC[C@@H]1OC[C@H](n2cnc3c(N)nc(N)nc32)O1)Oc1ccccc1 | EC50 |  | HepAD38 | PCR | 0.3 µM
Cc1nc2cc(-n3c(C(=O)NCc4ccccc4)c4n(c3=O)CCN(C(=O)c3ccc(Br)c(Cl)c3)C4)ccc2o1 | EC50 |  | HepG2.117 | PCR | 0.1–0.5 µM
CNS(=O)(=O)N1CC[C@@H](NS(=O)(=O)c2cn(C)c(C(=O)Nc3ccc(F)c(C#N)c3)c2F)C1 | EC50 |  | HepAD38 cells | PCR | <0.1 µM
CCOC(=O)C1=C(CN2CC(F)(F)[C@@H]3[C@H]2CON3C[C@@H](OC)C(C)(C)C(=O)O)NC(c2nccs2)=N[C@H]1c1ccc(F)c(F)c1Cl | EC50 |  | HepG2.2.15 | PCR | 0.001 µM
COc1ccc(-n2c(C(=O)NCc3ccc4[nH]ncc4c3)c3n(c2=O)CCN(C(=O)c2ccc(Cl)c(Cl)c2)C3)cc1 | EC50 |  | HepG2.117 | PCR | 0.5–5 µM
CCOC(=O)C1=C(CN2CC(F)(F)[C@@H]3[C@H]2CON3C[C@@H](OCC)C(C)(C)C(=O)O)NC(c2nccs2)=N[C@H]1c1cccc(F)c1C | EC50 |  | HepG2.2.15 | PCR | 0.002 µM
C[C@]1(CO)CO[C@H](n2cnc3c(=O)[nH]cnc32)C1 | EC50 |  |  |  | >100 µM
CCCC(=O)Nc1nc(N)nc2c1ncn2[C@H]1CO[C@@H](COP(=O)(N[C@@H](C)C(=O)OCC)Oc2ccccc2)O1 | EC50 |  | HepAD38 | PCR | 3.3 µM
CCOC(=O)C1=C(CN2CC(F)(F)[C@@H]3[C@H]2CON3CCCC(C)(O)C(=O)O)NC(c2nccs2)=N[C@H]1c1cccc(F)c1C | EC50 |  | HepG2.2.15 | PCR | 0.29 µM

Repeating the first 5 entries:

{"SMILES": "Cn1nc2cc(NS(=O)(=O)c3cnn(-c4cccc(F)n4)c3)ccc2c1C(=O)Nc1ccc(F)c(Cl)c1", "endpoint": "EC50", "cell line": "HepAD38", "read by": "PCR", "result": "<100 µM"}
{"SMILES": "CC(=O)N[C@H]1C(O[C@@H]2[C@@H](O)[C@H](O)[C@@H](O)C[C@H]2OC(=O)[C@H]2C[C@H](O)[C@@]3(O)[C@@H](C2)O[C@@]2(C[C@H](OC(=O)c4ccc(O)cc4)[C@H](C)CO2)[C@@H]3O)O[C@H](CO)[C@@H](O)[C@@H]1O", "endpoint": "EC50", "cell line": "HepG2 2.2.15", "read by": "ELISA / antigen", "result": "12.5 µM"}
{"SMILES": "CCCCCCCC(=O)Nc1nc(N)nc2c1ncn2[C@H]1CO[C@@H](COP(=O)(N[C@@H](C)C(=O)OCC)Oc2ccccc2)O1", "endpoint": "EC50", "cell line": "HepAD38", "read by": "PCR", "result": "0.55 µM"}
{"SMILES": "COc1ccc(CN2CCn3c(c4n(c3=O)CCN(C(=O)Nc3ccc(F)c(Cl)c3)C4)C2=O)cc1", "endpoint": "EC50", "cell line": "HepG2.2.15", "read by": "PCR", "result": ">5 µM"}
{"SMILES": "COC(=O)[C@H](Cc1ccccc1)NP(=O)(OC[C@@H]1C=C[C@H](n2ccc3c(N)ncnc32)C1)Oc1ccccc1", "endpoint": "EC50", "cell line": "HepG2 2.2.15", "read by": "hybridisation", "result": "20 µM"}